Experiment [1] deals with LecA (Pseudomonas aeruginosa, UniProt Q05097). The experiment in a line: Competitive binding assay based on fluorescence polarization, LecA. As to conditions: LecA 20 µM, reporter ligand S38, 2% DMSO; for IC50: read-out: IC50 (competitive binding, FP). The protocol: Next, binding of the optimized divalent ligand 17 and its synthetic precursor 16 to LecA was evaluated by fluorescence polarization-based (FP) assays,[47] SPR, and ITC. […] Therefore, fluorescent ligand 17 was analyzed in a direct binding experiment by FP. […] The dissociation constants for 16 were 47.2 ± 11.3 nM (ITC) and 47.8 ± 44.1 nM (steady-state SPR), while for 17, the values were 64.1 ± 31.1 nM and 79.3 ± 24.9 nM (steady-state SPR). For the SPR experiments, Kd was also determined by single-cycle kinetic analysis resulting in approximately five times higher affinity, but the data have limited reliability due to suboptimal fit for the kinetic curves (Figures S13B and S14).[58]−[60]
Expression and purification of LecA17,18 and LecB (PAO1)19,20 was performed in analogy to the previously published protocols. LecA was purified on melibiose-coupled […]
137 mM NaCl, 2.6 mM KCl at pH 7.4 supplemented with 1 mM CaCl2). Protein concentration was determined by UV spectroscopy at 280 nm using a molar extinction coefficient of 27 960 M-1 cm-1 for LecA and 6 990 M-1 cm-1 for LecB.
All synthesized alkyne precursors (S5m, S5p, S6m, S6p, S11, 25, S16, S22 and S24) were analysed in the previously established competitive binding assays based on fluorescence polarization (Figure S2).18,19 Galactose-based compounds (S5m, S5p, S6m, S6p, S11) were evaluated against LecA and C-glycoside-based compounds 23 and S16 against LecB. As […]
concentration range and served as negative controls in both assays.
LecA competitive binding assay was performed in presence of 2% DMSO, whereas LecB competitive binding assay had less than 0.5% DMSO present. In short, the compound dilution series were prepared in 96 well plates. 10 µL of each dilution in triplicates were mixed with 10 µL of master mix (40 µM LecA, 20 nM galactose-fluorescein reporter ligand S38 or 300 nM LecB and 20 nM S39 in TBS/Ca2+ buffer, Figure S3) in 384-well microtiter plates (Greiner Bio-One, Germany, cat no 781900). The plates were centrifuged (1 min, 500 g), sealed (EASYseal, Greiner Bio-One, cat no 676001) and incubated for 1 h in case of LecA and 6 h in case of LecB in a dark wet chamber under gentle shaking. Fluorescence was measured on a […]
PheraStar FS plate reader (BMG Labtech GmbH, Germany) with excitation filters at 485 nm and emission filters at 535 nm. The measured intensities were reduced by the blank values (protein in TBS/Ca2+ buffer) and analysed with MARS Data Analysis Software (BMG Labtech GmbH, Germany). IC50 values were determined by the four-parameter variable slope model with the minimum and maximum limits of the fit fixed according to the controls in each assay […]
Direct binding affinity determination of LecA and LecB imaging probes was performed with direct titration of protein and imaging probes in TBS/Ca2+ buffer. Protein dilution series was prepared in 96 well plates and 10 µL of each dilution in triplicates were mixed with 10 µL of fluorescent compound (20 nM) in 384-well microtiter plates (Greiner Bio-One, Germany, cat no 781900). The plates were centrifuged (1 min, 500 g), sealed and incubated for 2 h in dark wet chamber under gentle shaking. Fluorescence was measured on a PheraStar FS plate reader (BMG Labtech GmbH, Germany) with excitation filters at 485 nm and emission filters at 535 nm. The data were analysed with MARS Data Analysis Software (BMG Labtech GmbH, Germany) to calculate Kd values.
Surface plasmon resonance experiments were performed on a BIACORE X100 instrument (GE Healthcare) at 25 °C as described by Zahorska et. al..2 Averages and standard deviations were calculated from three independent experiments.
Isothermal titration calorimetry (ITC) was performed on an iTC200 (Malvern Panalytical) and the data were analyzed using Microcal Origin software (Malvern Panalytical).
LecA (50 µM) in the cell was titrated with ligand (100 µM or 200 µM) in TBS/Ca2+ buffer supplemented with 5% DMSO at 25 °C. Steep titration slopes achieved with the divalent […]
(In general: Polarisation of emitted light reports the rotation of a fluorescent probe.)

Amino acid sequences for entries named in this document (tags omitted). Residues count along the entry.
UniProt Q05097, whole entry: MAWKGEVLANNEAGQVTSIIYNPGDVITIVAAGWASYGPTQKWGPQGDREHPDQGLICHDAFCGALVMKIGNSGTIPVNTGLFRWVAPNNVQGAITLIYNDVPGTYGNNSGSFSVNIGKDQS
UniProt Q9HYN5, 2-115 limits assumed: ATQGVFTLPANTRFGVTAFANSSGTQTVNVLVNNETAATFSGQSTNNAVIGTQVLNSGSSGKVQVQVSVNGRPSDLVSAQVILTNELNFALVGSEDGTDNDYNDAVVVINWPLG

Experiment [2] deals with LecB (Pseudomonas aeruginosa, UniProt Q9HYN5). In words: Competitive binding assay based on fluorescence polarization, LecB.

By IC50 is commonly meant the concentration needed to halve the response being measured.

In the case of `C#CCCNc1ccc(S[C@@H]2O[C@H](CO)[C@H](O)[C@H](O)[C@H]2O)cc1`, in experiment [1], the half-maximal inhibitory concentration (IC50) came out at 22.3 µM.

`C#CCNc1ccc(S[C@@H]2OC[C@@H](O)[C@H](O)[C@H]2O)cc1` [S22]: the “IC50 (competitive binding, FP)” value was “did not bind” in experiment [1] and “did not bind” in experiment [2] (reporter ligand S39, less than 0.5% DMSO).

Turning to `C#CCCNc1cccc(S[C@@H]2O[C@H](CO)[C@H](O)[C@H](O)[C@H]2O)c1`, the IC50 in experiment [1] was 17.8 µM.

On to `C#CCNc1cccc(S[C@@H]2O[C@H](CO)[C@H](O)[C@H](O)[C@H]2O)c1`, for which, in experiment [1], the IC50 turned out to be 17.8 µM.

Turning to `C#CCOc1ccc(S[C@@H]2O[C@H](CO)[C@H](O)[C@H](O)[C@H]2O)cc1`, in experiment [1], the half-maximal inhibitory concentration (IC50) turned out to be 24.3 µM.

For the compound `C#CCNc1ccc(S[C@@H]2O[C@H](CO)[C@H](O)[C@H](O)[C@H]2O)cc1`, the concentration for half-maximal inhibition (IC50) in experiment [1] came out at 31.5 µM.

Regarding `C#CCOc1ccc(S(=O)(=O)NC[C@H]2O[C@@H](C)[C@@H](O)[C@@H](O)[C@@H]2O)cc1`, in experiment [2] (read-out: IC50 (competitive binding, FP), reporter ligand S39, less than 0.5% DMSO), the IC50 was 3.8 µM.

Source of the values: PMC11672137, “High-Affinity Lectin Ligands Enable the Detection of Pathogenic Pseudomonas aeruginosa Biofilms: Implications for Diagnostics and Therapy” (JACS Au, 2024).
